Pooled drug test results. Numbers come from NIAID ChemDB, via PubChem.

All rows: growth or infection tests; agent: HIV-1; read by: syncytia; read-out: EC50

An empty or dashed field is not shown. ECn: concentration that inhibits the pathogen or its effect by n%. Lines come from different laboratories, so protocols vary.

compound,mutations,strain,cell line,result
COc1ccc(NC(=S)c2ccoc2C)cc1OCC=C(Cl)Cl,RT-K103N,TIBO R82913-resistant (RT K103N),CEM,1.6 µg/mL
C=CCSc1cc(NC(=S)OC(C)C)ccc1Cl,RT-E138K,-,CEM,0.287 µM
COC(=O)c1cc(NC(=O)C2=C(C)OCCS2)ccc1Cl,RT-L100I,TIBO-resistant (RT L100I),CEM,>10 µg/mL
CCOCn1c(Sc2ccccc2)c(C(C)C)c(=O)[nH]c1=S,RT-E138K,IIIB,CEM,0.09 µM
Cc1ccccc1OC(=O)c1cc(NC(=S)OC(C)C)ccc1Cl,RT-L100I,-,CEM,15.1 µM
COc1ccc(NC(=S)C2=C(C)OCCS2)cc1OCC=C(Cl)Cl,RT-Y181C,Pyridone-resistant (RT Y181C),CEM,2 µg/mL
COCC1=C(C(=O)Nc2ccc(Cl)c(C(=O)OC(C)C)c2)SCCO1,RT-Y181C,PYR-resistant (RT Y181C),CEM,>10 µg/mL
COc1ccc(NC(=O)C2=C(C)OCCS2)cc1OCC=C(Cl)Cl,RT-Y188H,HEPT-resistant (RT Y188H),CEM,10 µg/mL
Cc1cc(C)cc(Cc2c(C(C)C)c(=O)[nH]c(=O)n2COCCO)c1,RT-K103N,IIIB TIBO R82913-resistant (RT K103N),CEM,≥10 µM
C=C(Cl)COc1cc(NC(=S)c2ccoc2C)ccc1Cl,-,IIIB,CEM,0.047 µg/mL
CCCSC(=Nc1ccc(Cl)c(C(=O)OC(C)C)c1)OC(C)C,RT-L100I,-,CEM,27.78 µM
CCc1c(Sc2ccccc2)n(COCc2ccccc2)c(=S)[nH]c1=O,Nevirapine resistant (RT Y181C),IIIB,CEM,0.34 µM
Cc1ccc(C)c(C(C)S(=O)(=O)c2c(C)ccc[n+]2[O-])c1,RT-Y181C,IIIB,CEM,≥20 µg/mL
CCc1c(Sc2cc(C)cc(C)c2)n(COCc2ccccc2)c(=O)[nH]c1=O,RT-L100I,IIIB (TIBO 82150) (RT-L100I),CEM,0.002 µM
C=C(Cl)COc1cc(NC(=S)c2ccoc2C)ccc1C,RT-L100I,TIBO R82150-resistant (RT L100I),CEM,0.95 µg/mL
C/C=C\COc1cc(NC(=S)OC(C)C)ccc1OC,-,IIIB,CEM,0.1354 µM
Cc1ccc(C)c(CSc2c(Cl)ccc[n+]2[O-])c1,RT-L100I,IIIB,CEM,0.2 µg/mL
CC(C)c1c(Sc2ccccc2)n(COCc2ccccc2)c(=S)[nH]c1=O,RT-K103N,IIIB TIBO R82913-resistant (RT K103N),CEM,1.5 µM
CCCC1=C(C(=O)Nc2ccc(Cl)c(C(=O)OC)c2)SCCO1,RT-Y181C,PYR-resistant (RT Y181C),CEM,>10 µg/mL
CC(=O)COc1cc(NC(=S)OC(C)C)ccc1Cl,RT-E138K,-,CEM,13.25 µM
CC(C)=CCOc1cc(NC(=S)c2ccoc2C)ccc1Cl,RT-L100I,IIIB,CEM,0.024 µM
CCCCOC(=S)Nc1ccc(Cl)c(C(=O)OC(C)C)c1,RT-E138K,-,CEM,7.579 µM
CC1=C(C(=O)Nc2ccc(Cl)c(C(=O)OC3CCCC3)c2)SCCO1,RT-Y181C,PYR-resistant (RT Y181C),CEM,0.26 µg/mL
CC(C)c1c(Sc2ccccc2)n(COCCO)c(=S)[nH]c1=O,RT-Y181I,IIIB,CEM,>10 µM
CC1=C(C(=O)Nc2ccc(F)c(C(=O)OC(C)C)c2)SCCO1,RT-E138K,TSAO-resistant (RT E138K),CEM,>10 µg/mL
Cc1occc1C(=S)Nc1ccc(Cl)c(OCC=C(Cl)Cl)c1,RT-L100I,TIBO R82150-resistant (RT L100I),CEM,0.14 µg/mL
CCOC(=O)C(C)Oc1cc(NC(=S)OC(C)C)ccc1Cl,RT-Y181C,-,CEM,24.58 µM
COc1ccc(C)cc1CS(=O)(=O)c1cccc[n+]1[O-],RT-L100I,IIIB,CEM,40 µg/mL
Cc1occc1C(=S)Nc1ccc(Cl)c(/C=N/OC(C)(C)C)c1,RT-Y188L,IIIB,CEM,>2 µM
CCC(CC)OC(=O)c1cc(NC(=S)OC(C)C)ccc1Cl,RT-Y181C,-,CEM,11.63 µM
COc1ccc(C)cc1CS(=O)(=O)c1cccc[n+]1[O-],-,IIIB,C8166,5.7 µg/mL
Cc1occc1C(=S)Nc1ccc(Cl)c(SCC=C(Cl)Cl)c1,RT-V106A,Nevirapine-resistant isolate (RT V106A),CEM,0.025 µg/mL
C=CCOC(=S)Nc1ccc(Cl)c(C(=O)OC(C)C)c1,-,IIIB,CEM,0.19 µM
CCOCn1c(Sc2ccccc2)c(CC)c(=O)[nH]c1=S,RT-E138K,IIIB,CEM,0.13 µM
COc1ccc(NC(=S)c2ccsc2C)cc1OCC=C(Cl)Cl,RT-Y181C,Pyridone-resistant (RT Y181C),CEM,0.13 µg/mL
CC(C)OC(=O)c1cc(NC(=S)OC(C)C)ccc1Cl,RT-V106A,IIIB,CEM,2.06 µM
CCOCn1c(Sc2cc(C)cc(C)c2)c(CC)c(=O)[nH]c1=O,RT-Y181I,IIIB,CEM,0.6 µM
Cc1cccc(CS(=O)(=O)c2cccc[n+]2[O-])c1,-,RF,CEM,10 µg/mL
Cc1ccc(C)c(CS(=O)c2ccc(Cl)c[n+]2[O-])c1,RT-Y181C,IIIB,CEM,9.4 µg/mL
CC1=C(C(=O)Nc2cc(C(=O)OC(C)C)c(C)cc2F)SCCO1,RT-V106A,Nevirapine-resistant (RT V106A),CEM,>10 µg/mL
CC[C@@H](C)OC(=S)Nc1ccc(Cl)c(C(=O)OC(C)C)c1,RT-Y181C,-,CEM,1.819 µM
CCOC(=O)c1cc(NC(=O)C2=C(CC)OCCS2)ccc1Cl,RT-L100I,TIBO-resistant (RT L100I),CEM,0.8 µg/mL
CCCCCOC(=S)Nc1ccc(Cl)c(C(=O)OC(C)C)c1,RT-V106A,-,CEM,29.08 µM
O=S(=O)(Cc1ccccc1I)c1cccc[n+]1[O-],-,HE,CEM,11 µg/mL
C=CCOc1cc(NC(=S)OC(C)C)ccc1C#N,RT-Y181C,-,CEM,2.352 µM
Cc1cc(C)cc(Sc2c(C(C)C)c(=O)[nH]c(=S)n2COCCO)c1,RT-Y188H,IIIB,CEM,1.4 µM
CCCOC(=S)Nc1ccc(Cl)c(C(=O)OC(C)C)c1,RT-V106A,-,CEM,17.41 µM
Cc1ccc(C(C)S(=O)(=O)c2c(C)ccc[n+]2[O-])c(C)c1,-,MN,CEM,36 µg/mL
CCCOC(=O)c1cc(NC(=S)OC(C)C)ccc1Cl,RT-Y181C,-,CEM,5.699 µM
CCC1=C(C(=O)Nc2ccc(Cl)c(C(=O)OCC(C)C)c2)SCCO1,RT-Y181C,PYR-resistant (RT Y181C),CEM,0.6 µg/mL
CC(C)OC(=O)c1cc(NC(=S)OC(C)(C)C)ccc1Cl,RT-E138K,-,CEM,16.67 µM
CC1=C(C(=O)Nc2ccc(Cl)c(C(=O)OC3CCCCC3)c2)SCCO1,RT-E138K,TSAO-resistant (RT E138K),CEM,3.5 µg/mL
CCC(CC)COC(=O)c1cc(NC(=S)OC(C)C)ccc1Cl,RT-L100I,-,CEM,1.397 µM
CC(C)=CCOc1cc(NC(=S)c2ccoc2C)ccc1Cl,-,IIIB,CEM,0.002 µg/mL
CC(C)OC(=O)c1cc(NC(=S)SC(C)C)ccc1Cl,RT-V106A,-,CEM,>30.13 µM
CC1=C(C(=O)Nc2ccc(Cl)c(C(=O)OC(C)C)c2)SCCO1,RT-Y181C,IIIB,CEM,42 µM
CC(C)OC(=O)c1cc(NC(=S)N(C)C(C)C)ccc1Cl,-,IIIB,CEM,>30.32 µM
C=C(Cl)COc1cc(NC(=S)c2ccsc2C)ccc1C#N,RT-E138K,TSAO-m3T-resistant (RT E138K),CEM,0.13 µg/mL

Repeating the final 6 entries:

CCC(CC)COC(=O)c1cc(NC(=S)OC(C)C)ccc1Cl ; mutations: RT-L100I ; cell line: CEM ; result: 1.397 µM
CC(C)=CCOc1cc(NC(=S)c2ccoc2C)ccc1Cl ; strain: IIIB ; cell line: CEM ; result: 0.002 µg/mL
CC(C)OC(=O)c1cc(NC(=S)SC(C)C)ccc1Cl ; mutations: RT-V106A ; cell line: CEM ; result: >30.13 µM
CC1=C(C(=O)Nc2ccc(Cl)c(C(=O)OC(C)C)c2)SCCO1 ; mutations: RT-Y181C ; strain: IIIB ; cell line: CEM ; result: 42 µM
CC(C)OC(=O)c1cc(NC(=S)N(C)C(C)C)ccc1Cl ; strain: IIIB ; cell line: CEM ; result: >30.32 µM
C=C(Cl)COc1cc(NC(=S)c2ccsc2C)ccc1C#N ; mutations: RT-E138K ; strain: TSAO-m3T-resistant (RT E138K) ; cell line: CEM ; result: 0.13 µg/mL